In the assay the target is T1, S-protein RBD (WT) (Severe acute respiratory syndrome coronavirus 2, UniProt P0DTC2).
T1 construct: made in house; host or cells: Expi293F cells
Also noted: species or system SARS-CoV-2. The note with it: read-out: IC50 against the S-protein RBD binding to immobilized heparin.

As a reminder, the IC50 is the concentration that gives 50% inhibition. Regarding pentosan polysulfate [PPS], the IC50 was ~35 nM.
